Measured values from several laboratories, pooled; numbers as filed in NIAID ChemDB.

Shared fields: target-level tests; species: Toxoplasma gondii

ICn: concentration for n% inhibition. Blank or dashed fields: not listed here. Percent inhibition refers to the dose given; in toxicity tests it is the harm to the cells. Neighbouring rows are from separate reports.

| SMILES | strain | target | endpoint | dose | value |
|---|---|---|---|---|---|
| Cn1c(=O)c2[nH]c(=O)[nH]c2n(C)c1=O | RH | Phosphoribosyltransferase | IC50 |  | >900 µM |
| Nc1nc(N)c(-c2ccc(Cl)cc2)c(COc2ccc([N+](=O)[O-])cc2)n1 | RH | DHFR | IC50 |  | 1.37 µM |
| O=c1ccnc[nH]1 | RH | Uracil phosphoribosyltransferase | IC50 |  | >2000 µM |
| Cc1ccc(-c2nc3c(N)nc(N)nc3nc2N)cc1 | RH | DHFR | IC50 |  | 14.6 µM |
| Cc1c[nH]c(=S)[nH]c1=O | RH | Uracil phosphoribosyltransferase | inhibition | 2000 µM | <10% |
| NC(=O)c1[nH]cnc1N | RH | Phosphoribosyltransferase | Ki |  | 9 µM |
| Nc1ccc(S(=O)(=O)Nc2cccc(N)c2)cc1 |  | DHPS | IC50 |  | >360 µM |
| CSc1nncc2[nH]cnc12 | RH | Phosphoribosyltransferase | IC50 |  | >900 µM |
| O=c1cc(O)nc[nH]1 | RH | Uracil phosphoribosyltransferase | IC50 |  | >2000 µM |
| Cc1c(CNc2ccc(C(=O)NC(CC(=O)O)CC(=O)O)cc2)ccc2nc(N)nc(N)c12 | RH | DHFR | IC50 |  | 0.00294 µM |
| Nc1cc(=O)[nH]c(=S)[nH]1 | RH | Uracil phosphoribosyltransferase | inhibition | 2000 µM | <10% |
| CN(Cc1cnc2nc(N)nc(N)c2n1)c1ccc(C(=O)N[C@H](CCCCN)C(=O)O)cc1 | RH | DHFR | IC50 |  | >0.08 µM |
| CN1CN(C)c2n[nH]nc2C1=O | RH | Phosphoribosyltransferase | IC50 |  | >900 µM |
| CC1CSC(NS(=O)(=O)c2ccc(N)cc2)=N1 |  | DHPS | IC50 |  | >1000 µM |
| S=c1nccc[nH]1 | RH | Uracil phosphoribosyltransferase | Ki |  | 180 µM |
| CN(Cc1cnc2nc(N)nc(N)c2n1)c1cc(Cl)c(C(=O)N[C@@H](CCC(=O)O)C(=O)O)cc1Cl | RH | DHFR | IC50 |  | 0.082 µM |
| CN1Cc2[nH]cnc2N=C1N | RH | Phosphoribosyltransferase | Ki |  | 290 µM |
| Nc1ccc(S(=O)(=O)Nc2ccc(C(=O)O)cc2)cc1 |  | DHPS | IC50 |  | >670 µM |
| Nc1nccc(=O)[nH]1 | RH | Uracil phosphoribosyltransferase | IC50 |  | >2000 µM |
| NS(=O)(=O)c1nc[nH]c1[N+](=O)[O-] | RH | Phosphoribosyltransferase | IC50 |  | >900 µM |
| CC1(C)N=C(N)N=C(N)N1c1ccc(N)cc1 | RH | DHFR | IC50 |  | 1.44 µM |
| O=c1[nH]cc(Br)c(=O)[nH]1 | RH | Uracil phosphoribosyltransferase | inhibition | 2000 µM | <5% |
| Cc1ccc2c(ccc3nc(N)nc(N)c32)c1 | RH | DHFR | IC50 |  | 0.052 µM |
| CS(=O)(=O)c1cc(=O)[nH]c(=O)[nH]1 | RH | Uracil phosphoribosyltransferase | IC50 |  | >2000 µM |
| Nc1ccnc(=O)[nH]1 | RH | Phosphoribosyltransferase | Ki |  | 476 µM |
| Nc1ccc(S(=O)(=O)Nc2cnc3ccccc3n2)cc1 |  | DHPS | IC50 |  | 450 µM |
| O=C1CCCC(=O)N1 | RH | Uracil phosphoribosyltransferase | IC50 |  | >2000 µM |
| COC(=O)c1nc[nH]c1CO | RH | Phosphoribosyltransferase | inhibition | 900 µM | <10% |

Again, the opening 4 rows:

SMILES,strain,target,endpoint,dose,value
Cn1c(=O)c2[nH]c(=O)[nH]c2n(C)c1=O,RH,Phosphoribosyltransferase,IC50,,>900 µM
Nc1nc(N)c(-c2ccc(Cl)cc2)c(COc2ccc([N+](=O)[O-])cc2)n1,RH,DHFR,IC50,,1.37 µM
O=c1ccnc[nH]1,RH,Uracil phosphoribosyltransferase,IC50,,>2000 µM
Cc1ccc(-c2nc3c(N)nc(N)nc3nc2N)cc1,RH,DHFR,IC50,,14.6 µM